Consider 3 substances from patent US6117849A, “S-(+)-adenosylmethionine and 3'-azido-2', 3'-dideoxy-nucleoside complexes as potent inhibitors of HIV-replication” (Symbio Herborn Group GmbH & Co., priority 1996, dated 2000).

Like-named read-outs stand apart in the source and are kept apart here.

The subject of series [1] is T-lymphocyte cell cultures. The procedure: Viability of the T cells was determined by means of a tetrazolium salt (MTT) metabolic assay.--(see also: Schwartz, O., et al., AIDS Rcs. Hum. Retroviruses, 4 441-448, 1988).
The subject of the next series is bone marrow stem cells. Conditions: vs AZT.
Series [2] deals with mitochondrial DNA replication. Conditions: vs AZT.
In series [3] the target is T1, reverse transcriptase (RT) (HIV-1 M:B_HXB2R, UniProt P04585). Format: biochemical. Details: A2: RT in cord-blood lymphocyte cultures infected with HIV from an AIDS patient. Conditions: for Ki: RT. The procedure:
The second in-vitro test uses the enzymatic activity of RT, testing the kinetic and inhibitory action of the molecular complexes. The cloning of the RT in biologically active form made it possible to have large quantities of the RT enzyme available for these studies (RT from Sigma, lot # R 9376).
The steady state reaction conditions for RT are chosen that approximate physiological conditions are met: pH 7.45 (37° C.), ionic strength of 150 mM, routinely a buffer was employed consisting of 50 mM TRIS-HCl, 100 mM KCl, 5 mM MgCl2, the addition of 10 μg/mL bovine serum albumin were included. […] The aforementioned precautions designed to avoid potential reduction of SAM in the presence of DTT are taken into accounts to preclude any distortions of the kinetic behavior of the RT enzyme in the presence of the various substrates e.g. as our molecular compounds. […] The enzyme concentrations of RT was approx. 20 nM, T-P (template-primer) […] and 25 μM of [^3 H]-dNTP (assay conditions are modified fro those of Mayunder et al., J. biol. Chem.,263, 15657, 1988). […] In case both parameters are effected to the same extent, then the inhibition is uncompetitive. In order to facilitate the difference between SAM kinetics and those for the molecular complexes we studied first SAM kinetics and subsequently the kinetics in the presence of the molecular complexes. […] Similar experiments have been carries out with dGTP.
The enzyme was assayed with 50 nM primer sites on poly (rA): oligo (dT), and variable concentrations of [^3 H] dTP as substrates in a reaction mixture as described above at pH 7.5 (37° C.).

The target of series [4] is T1, reverse transcriptase (RT). Format: biochemical. Also noted: A2: RT in cord-blood lymphocyte cultures infected with HIV from an AIDS patient. Conditions: no DTT.

In turn, 3'-azido-2',3'-dideoxyinosine [SAM/AZI] came in with a therapeutic index in series [1] (t-lymphocyte cultures) of 5.000.
As to 3'-azido-2',3'-dideoxyuridine [SAM/AZU], the therapeutic index in series [1] (t-lymphocyte cultures) came out at 6.500. Further, the “toxicity for bone marrow stem cells” value in the series on bone marrow stem cells is listed as “less toxic than AZT”. The “toxicity/inhibition of mitochondrial DNA replication” value in series [2] is reported as “less toxic as well as inhibitory to mitochondrial DNA replication”. Further, the affinity in series [3] (no DTT), expressed as Ki, was 210 ± 10 nM.
With “(+)-SAM-3'-azido-2',3'-dideoxythymidine complex [SAM/AZT]”, the therapeutic index in series [1] (in vitro, considering cytotoxicity) is reported as 7.000. In series [3] (double reciprocal plot / steady state kinetics), the “type of RT inhibition” value is recorded as “noncompetitive”. Also, the kcat entry is “approx. 1.5 min^-1” in series [3] (no DTT), 1.5 min.^-1 in series [3] (noncompetitive with respect to deoxyadenosine triphosphate), 2.5 min⁻¹ in series [3] (noncompetitive with respect to deoxyguanosine triphosphate) and 0.025 s⁻¹ in series [4]. Also, the affinity in series [3] (no DTT), expressed as Ki, was 180 ± 10 nM. Besides, the Km (in general, the concentration of substrate that gives half-maximal velocity) in series [3] (no DTT, pH 7.45-7.5, 37° C.) is 0.67 ± 0.02 µM.
